{"source": "PubChem BioAssay AID504761 (Drosophila RNAi Screening Center, 2011)", "purpose": "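Genome-wide fly cell screen for genes dengue virus requires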 (primary screen)", "cell system": "D.Mel-2 cells from Drosophila", "knock-down reagent": "long dsRNA against Drosophila genes", "conditions": "infection with dengue virus type 2; dose and infection time not stated", "measurement": "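Per well on two replicate plates, imaging gave the percent of cells positive for viral envelope protein, ranked by infection, and a nuclear count of cells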", "direction": "infection score: higher = more virus-infected cells; cell count: higher = more cells in the well", "call rule": "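Very low infection ranking in both replicate wells (chance probability at most 0.065), then a retest showing infection dropped 1.5-fold or more at p below 0.05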", "meaning of the calls": "active = confirmed: knock-down lowers infection; inactive = not picked or not confirmed", "note": "In all, the deposit lists about 22,000 reagents; below is an unselected part of those with a known target gene and a result. Of all reagents, 116 (0.52%) were called active. 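Calls depend on retest data that are not deposited; infection was ranked per plate without normalising between plates; the unit of the infection score is not given.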 Raw values vary from plate to plate and are shown uncorrected. Not all columns of the deposit are shown. Reagent sequences are not shown. The record does not give: the amount of reagent, the time to read-out."}
The first 2 entries, to show the layout:
{"Gene": "Ctr1C", "amplicon": "DRSC15089", "infection score, replicate 1": 6.71, "cell count, replicate 1": 5156, "call": "inactive"}
{"Gene": "rtv", "amplicon": "DRSC19541", "infection score, replicate 1": 1.34, "cell count, replicate 1": 6260, "call": "inactive"}

The listing, from the start:
{"Gene": "Ctr1C", "amplicon": "DRSC15089", "infection score, replicate 1": 6.71, "cell count, replicate 1": 5156, "call": "inactive"}
{"Gene": "rtv", "amplicon": "DRSC19541", "infection score, replicate 1": 1.34, "cell count, replicate 1": 6260, "call": "inactive"}
{"Gene": "CG5608", "amplicon": "DRSC15841", "infection score, replicate 1": 16.9, "cell count, replicate 1": 7020, "call": "inactive"}
{"Gene": "Gr98b", "amplicon": "DRSC21675", "infection score, replicate 1": 4.6, "cell count, replicate 1": 6478, "call": "inactive"}
{"Gene": "Mapmodulin", "amplicon": "DRSC06956", "infection score, replicate 1": 4.12, "cell count, replicate 1": 5091, "call": "inactive"}
{"Gene": "CG5104", "amplicon": "DRSC11765", "infection score, replicate 1": 5.56, "cell count, replicate 1": 6668, "call": "inactive"}
{"Gene": "rdx", "amplicon": "DRSC16580", "infection score, replicate 1": 0.73, "cell count, replicate 1": 6133, "call": "inactive"}
{"Gene": "rdx", "amplicon": "DRSC23120", "infection score, replicate 1": 0.74, "cell count, replicate 1": 6374, "call": "inactive"}
{"Gene": "rdx", "amplicon": "DRSC29820", "infection score, replicate 1": 15.1, "cell count, replicate 1": 6312, "call": "inactive"}
{"Gene": "CG12689", "amplicon": "DRSC17879", "infection score, replicate 1": 17.9, "cell count, replicate 1": 4308, "call": "inactive"}
{"Gene": "Ir94b", "amplicon": "DRSC21439", "infection score, replicate 1": 3.73, "cell count, replicate 1": 5817, "call": "inactive"}
{"Gene": "Crk", "amplicon": "DRSC17163", "infection score, replicate 1": 5.16, "cell count, replicate 1": 6565, "call": "inactive"}
{"Gene": "DhpD", "amplicon": "DRSC12288", "infection score, replicate 1": 36.8, "cell count, replicate 1": 6041, "call": "inactive"}
{"Gene": "CoRest", "amplicon": "DRSC19881", "infection score, replicate 1": 4.66, "cell count, replicate 1": 6755, "call": "inactive"}
{"Gene": "CoRest", "amplicon": "DRSC21626", "infection score, replicate 1": 4.08, "cell count, replicate 1": 5975, "call": "inactive"}
{"Gene": "CoRest", "amplicon": "DRSC22305", "infection score, replicate 1": 4.58, "cell count, replicate 1": 5104, "call": "inactive"}
{"Gene": "CoRest", "amplicon": "DRSC25141", "infection score, replicate 1": 5.76, "cell count, replicate 1": 6715, "call": "inactive"}
{"Gene": "mthl2", "amplicon": "DRSC10287", "infection score, replicate 1": 1.97, "cell count, replicate 1": 6043, "call": "inactive"}
{"Gene": "mthl2", "amplicon": "DRSC27003", "infection score, replicate 1": 7.35, "cell count, replicate 1": 6789, "call": "inactive"}
{"Gene": "Reg-2", "amplicon": "DRSC08690", "infection score, replicate 1": 9.36, "cell count, replicate 1": 5864, "call": "inactive"}
{"Gene": "Reg-2", "amplicon": "DRSC26888", "infection score, replicate 1": 12, "cell count, replicate 1": 6043, "call": "inactive"}
